Test results: patent US20230014151A1, “COMBINATION ANTIVIRAL THERAPY FOR MEASLES” (The Trustees of Columbia University in the City of New York, priority 2019, published 2023)

Target: MeV F (S262R) (Measles virus, UniProt Q786F3, S262R)
Conditions: 1 uM compound or peptide, 37° C., 60'

Row | SMILES | stage at which fusion is blocked (reversibly bound, irreversibly bound or fused RBCs)
1 | CC[C@H](C)[C@H](NC(=O)[C@H](C)NC(=O)[C@H](CC(N)=O)NC(=O)CNC(=O)[C@H](CC(C)C)NC(=O)[C@H](CC(N)=O)NC(=O)[C@@H](NC(=O)CNC(=O)[C@@H](NC(=O)[C@H](CC(=O)O)NC(=O)[C@H](CC(C)C)NC(=O)[C@H](CCCNC(=N)N)NC(=O)[C@H](CCC(=O)O)NC(=O)[C@H](CC(C)C)NC(=O)[C@H](CO)NC(=O)[C@@H](NC(=O)[C@@H]1CCCN1C(=O)[C@@H]1CCCN1C(=O)CNC(=O)[C@H](CO)NC(=O)CNC(=O)[C@H](CO)NC(=O)CNC(=O)CNC(=O)[C@H](Cc1ccccc1)NC(=O)[C@@H](Cc1ccccc1)NC(=O)OCc1ccccc1)[C@@H](C)CC)C(C)C)[C@@H](C)O)C(=O)N[C@@H](C)C(=O)N[C@@H](CCCCN)C(=O)N[C@@H](CC(C)C)C(=O)N[C@@H](CCC(=O)O)C(=O)N[C@@H](CC(=O)O)C(=O)N[C@@H](C)C(=O)N[C@@H](CCCCN)C(=O)N[C@@H](CCC(=O)O)C(=O)N[C@@H](CC(C)C)C(=O)N[C@@H](CC(C)C)C(=O)N[C@@H](CCC(=O)O)C(=O)N[C@@H](CO)C(=O)N[C@@H](CO)C(=O)N[C@@H](CC(=O)O)C(=O)N[C@@H](CCC(N)=O)C(=O)N[C@H](C(=O)N[C@@H](CC(C)C)C(=O)N[C@@H](CCCNC(=N)N)C(=O)NCC(=O)N[C@@H](CO)C(=O)NCC(=O)N[C@@H](CO)C(=O)NCC(=O)N[C@@H](CSC1CC(=O)N(CCCC(=O)NCCOCCOCCOCCOCCC(=O)NCCN(CCNC(=O)CCOCCOCCOCCOCCNC(=O)CCCN2C(=O)CC(SC[C@H](NC(=O)CNC(=O)[C@H](CO)NC(=O)CNC(=O)[C@H](CO)NC(=O)CNC(=O)[C@H](CCCNC(=N)N)NC(=O)[C@H](CC(C)C)NC(=O)[C@@H](NC(=O)[C@H](CCC(N)=O)NC(=O)[C@H](CC(=O)O)NC(=O)[C@H](CO)NC(=O)[C@H](CO)NC(=O)[C@H](CCC(=O)O)NC(=O)[C@H](CC(C)C)NC(=O)[C@H](CC(C)C)NC(=O)[C@H](CCC(=O)O)NC(=O)[C@H](CCCCN)NC(=O)[C@H](C)NC(=O)[C@H](CC(=O)O)NC(=O)[C@H](CCC(=O)O)NC(=O)[C@H](CC(C)C)NC(=O)[C@H](CCCCN)NC(=O)[C@H](C)NC(=O)[C@@H](NC(=O)[C@H](C)NC(=O)[C@H](CC(N)=O)NC(=O)CNC(=O)[C@H](CC(C)C)NC(=O)[C@H](CC(N)=O)NC(=O)[C@@H](NC(=O)CNC(=O)[C@@H](NC(=O)[C@H](CC(=O)O)NC(=O)[C@H](CC(C)C)NC(=O)[C@H](CCCNC(=N)N)NC(=O)[C@H](CCC(=O)O)NC(=O)[C@H](CC(C)C)NC(=O)[C@H](CO)NC(=O)[C@@H](NC(=O)[C@@H]3CCCN3C(=O)[C@@H]3CCCN3C(=O)CNC(=O)[C@H](CO)NC(=O)CNC(=O)[C@H](CO)NC(=O)CNC(=O)CNC(=O)[C@H](Cc3ccccc3)NC(=O)[C@@H](Cc3ccccc3)NC(=O)OCc3ccccc3)[C@@H](C)CC)C(C)C)[C@@H](C)O)[C@@H](C)CC)[C@@H](C)CC)C(=O)O)C2=O)CCO[C@H]2CC[C@@]3(C)C(=CC[C@H]4[C@@H]5CC[C@H]([C@H](C)CCCC(C)C)[C@@]5(C)CC[C@@H]43)C2)C1=O)C(=O)O)[C@@H](C)CC (single isomer, unassigned) | blocks at the pre-fusion state
2 | CC(=O)N[C@H]1[C@H]([C@H](O)[C@H](O)CO)OC(C(=O)O)=C[C@@H]1N=C(N)N [Zanamivir, zanamivir, reference compound] | released all the RBC
